B1: 4995_E20 (PGT-142) (antibody, V domains shown)
VH: QVQLVQSGPEVKKPGSSVKVSCKASGNTFSKYDVHWVRQATGQGLEWVGWISHERDKTESAQRFKGRVTFTRDTSATTAYMELRGLTSDDTAIYYCTRGSKHRLRDYVLYDDYGLINYQEWNDYLEFLDVWGHGTAVTVSS
VL: DTVVTQSPLSLPVTPGEAASMSCSSTQSLRHSNGANYLAWYQHKPGQSPRLLIRLGSQRASGVPDRFSGSGSGTHFTLKISRVEAEDAAIYYCMQGLNRPWTFGKGTKLEIK
B2: 4877_D15 (PGT-122) (antibody, V domains shown)
VH: QVHLQESGPGLVKPSETLSLTCNVSGTLVRDNYWSWIRQPLGKQPEWIGYVHDSGDTNYNPSLKSRVHLSLDKSKNLVSLRLTGVTAADSAIYYCATTKHGRRIYGVVAFKEWFTYFYMDVWGKGTSVTVSS
VL: TFVSVAPGQTARITCGEESLGSRSVIWYQQRPGQAPSLIIYNNNDRPSGIPDRFSGSPGSTFGTTATLTITSVEAGDEADYYCHIWDSRRPTNWVFGEGTTLIVL
B3: 5145_B14 (PGT-127) (antibody, V domains shown)
VH: QPQLQESGPGLVEASETLSLTCTVSGDSTGRCNYFWGWVRQPPGKGLEWIGSLSHCRSYYNTDWTYHNPSLKSRLTISLDTPKNQVFLRLTSVTAADTATYYCARFGGEVLVYRDWPKPAWVDLWGRGTLVVTVSS
VL: QSALTQPPSASGSPGQSITISCTGTSNNFVSWYQQYPGKAPKLVIYEVNKRPSGVPDRFSGSKSGSTASLTVSGLQADDEGVYYCSSLVGNWDVIFGGGTKLTVL
B4: 4858_P08 (PGT-123) (antibody, V domains shown)
VH: QLHLQESGPGLVKPPETLSLTCSVSGASINDAYWSWIRQSPGKRPEWVGYVHHSGDTNYNPSLKRRVTFSLDTAKNEVSLKLVDLTAADSATYFCARALHGKRIYGIVALGELFTYFYMDVWGKGTAVTVSS
VL: SSMSVSPGETAKISCGKESIGSRAVQWYQQKPGQPPSLIIYNNQDRPAGVPERFSASPDFRPGTTATLTITNVDAEDEADYYCHIYDARGGTNWVFDRGTTLTVL
B5: 4838_L06 (PGT-121) (antibody, V domains shown)
VH: QMQLQESGPGLVKPSETLSLTCSVSGASISDSYWSWIRRSPGKGLEWIGYVHKSGDTNYSPSLKSRVNLSLDTSKNQVSLSLVAATAADSGKYYCARTLHGRRIYGIVAFNEWFTYFYMDVWGNGTQVTVSS
VL: SDISVAPGETARISCGEKSLGSRAVQWYQHRAGQAPSLIIYNNQDRPSGIPERFSGSPDSPFGTTATLTITSVEAGDEADYYCHIWDSRVPTKWVFGGGTTLTVL
B6: 5343_B08 (PGT-135) (antibody, V domains shown)
VH: QLQMQESGPGLVKPSETLSLSCTVSGDSIRGGEWGDKDYHWGWVRHSAGKGLEWIGSIHWRGTTHYKESLRRRVSMSIDTSRNWFSLRLASVTAADTAVYFCARHRHHDVFMLVPIAGWFDVWGPGVQVTVSS
VL: EIVMTQSPDTLSVSPGETVTLSCRASQNINKNLAWYQYKPGQSPRLVIFETYSKIAAFPARFVASGSGTEFTLTINNMQSEDVAVYYCQQYEEWPRTFGQGTKVDIK
B7: 4980_N08 (PGT-143) (antibody, V domains shown)
VH: B1 VH with V5E, P9A, I51M, R55G, T77S
VL: B1 VL with S24T, A85P
B8: 4993_K13 (PGT-141) (antibody, V domains shown)
VH: B1 VH with I51M, R55G, T77S
VL: B1 VL
B9: 4995_P16 (PGT-145) (antibody, V domains shown)
VH: QVQLVQSGAEVKKPGSSVKVSCKASGNSFSNHDVHWVRQATGQGLEWMGWMSHEGDKTGLAQKFQGRVTITRDSGASTVYMELRGLTADDTAIYYCLTGSKHRLRDYFLYNEYGPNYEEWGDYLATLDVWGHGTAVTVSS
VL: EVVITQSPLFLPVTPGEAASLSCKCSHSLQHSTGANYLAWYLQRPGQTPRLLIHLATHRASGVPDRFSGSGSGTDFTLKISRVESDDVGTYYCMQGLHSPWTFGQGTKVEIK

Here are results for nine molecules from patent publication US20240132578A1.

Numbering of substitutions follows the chain as printed.

The first assay concerns the target 162-pseudovirus panel representing all major circulating HIV-1 subtypes. Briefly: cell-based or functional assay.
B1 returned a Percent viruses neutralized, IC50 < 1 µg/ml of 40%.
Turning to B2, the Median IC50 (µg/ml) against viruses neutralized with an IC50 <50 µg/ml came to 0.05 µg/mL.
For the molecule B3, the Median IC50 (µg/ml) against viruses neutralized with an IC50 <50 µg/ml stood at 0.08 µg/mL and the Percent viruses neutralized, IC50 < 50 µg/ml turned out to be 50%.
On to B4, for which the Median IC50 (µg/ml) against viruses neutralized with an IC50 <50 µg/ml was found to be 0.03 µg/mL and the Percent viruses neutralized, IC50 < 0.1 µg/ml came to 40%.
Regarding B5, the Median IC50 (µg/ml) against viruses neutralized with an IC50 <50 µg/ml was 0.03 µg/mL and the Percent viruses neutralized, IC50 < 50 µg/ml amounted to 70%.

Another assay has as its target HIV-1 Env of all pseudoviruses of the cross-clade 162-pseudovirus panel (n = 162). Nature of the assay: cell-based or functional assay.
In turn, B2 came in with a Median IC50 (µg/ml) against viruses neutralized with an IC50 <50 µg/ml of 0.05 µg/mL.
On the same count and under the same terms, the value for B3 was 0.08 µg/mL; that for B4 was 0.03 µg/mL; that for B5 was 0.03 µg/mL.

The target in a further assay is HIV-1 clade A Env pseudoviruses of the cross-clade 162-pseudovirus panel (n=26). Nature of the assay: cell-based or functional assay.
In the case of B6, the Median IC50 (µg/ml) against viruses neutralized with an IC50 <50 µg/ml (section D) was determined as 1.01 µg/mL.
Same read-out and setting: in the case of B2 it was 0.33 µg/mL.
Still for that read-out and setting: in the case of B3 it was 0.16 µg/mL; in that of B4, 0.18 µg/mL.

Another assay deals with HIV-1 clade AE Env pseudoviruses of the cross-clade 162-pseudovirus panel (n=10). Nature of the assay: cell-based or functional assay.
In the case of B1, the Median IC50 (µg/ml) against all viruses is more than 50 µg/mL.
On the same count and under the same terms, the value for B7 was more than 50 µg/mL; that for B8 was more than 50 µg/mL.

In another assay the target is HIV-1 clade AG Env pseudoviruses of the cross-clade 162-pseudovirus panel (n=10). Nature of the assay: cell-based or functional assay.
Molecule B2 came in with a Median IC50 (µg/ml) against viruses neutralized with an IC50 <50 µg/ml (section D) of 0.97 µg/mL.
On the same count and under the same terms, the value for B3 was 0.24 µg/mL; that for B4 was 2.27 µg/mL.

A further assay has as its target HIV-1 clade B Env pseudoviruses of the cross-clade 162-pseudovirus panel (n=31). Briefly: cell-based or functional assay.
Take B6: the Median IC50 (µg/ml) against viruses neutralized with an IC50 <50 µg/ml (section D) worked out at 2.87 µg/mL.
The same measure, in the same setting: in the case of B2 it was 0.15 µg/mL; in that of B3, 0.36 µg/mL; in that of B4, 0.14 µg/mL.

The target of another assay is HIV-1 clade C Env pseudoviruses of the cross-clade 162-pseudovirus panel (n=27). Briefly: cell-based or functional assay.
As for B7, the Median IC50 (µg/ml) against all viruses came to 0.8 µg/mL.
In turn, B6 had a Median IC50 (µg/ml) against viruses neutralized with an IC50 <50 µg/ml (section D) of 0.28 µg/mL.
On to B2, for which the Median IC50 (µg/ml) against viruses neutralized with an IC50 <50 µg/ml (section D) was 0.17 µg/mL.
On the same count and under the same terms, in the case of B3 it was 7.99 µg/mL; in that of B4, 0.08 µg/mL.

In the next assay the target is HIV-1 clade D Env pseudoviruses of the cross-clade 162-pseudovirus panel (n=25). Briefly: cell-based or functional assay.
In turn, B9 gave a Median IC50 (µg/ml) against all viruses of 10 µg/mL.
On the same count and under the same terms, in the case of B1 it was more than 50 µg/mL; in that of B7, more than 50 µg/mL; in that of B8, more than 50 µg/mL.
Consider B6, for which the Median IC50 (µg/ml) against viruses neutralized with an IC50 <50 µg/ml (section D) was 1.13 µg/mL.
Still for that read-out and setting: in the case of B2 it was 0.11 µg/mL; in that of B3, 0.18 µg/mL; in that of B4, 0.13 µg/mL.

The next assay addresses HIV-1 clade F Env pseudoviruses of the cross-clade 162-pseudovirus panel (n=15). Nature of the assay: cell-based or functional assay.
Molecule B6 displayed a Median IC50 (µg/ml) against viruses neutralized with an IC50 <50 µg/ml (section D) of 1.26 µg/mL.
The same measure, in the same setting: the value for B2 was 5.53 µg/mL; that for B3 was 0.86 µg/mL.
Still for that read-out and setting: the value for B4 was 0.74 µg/mL.

The target of the next assay is HIV-1 clade G Env pseudoviruses of the cross-clade 162-pseudovirus panel (n=15). Nature of the assay: cell-based or functional assay.
In the case of B6, the Median IC50 (µg/ml) against viruses neutralized with an IC50 <50 µg/ml (section D) amounted to 1.01 µg/mL.
The same measure, in the same setting: in the case of B2 it was 0.65 µg/mL; in that of B3, 0.67 µg/mL; in that of B4, 0.19 µg/mL.
